Pooled drug test results. Numbers come from NIAID ChemDB, via PubChem.

All rows: whole-cell or culture tests; organism: Candida albicans; measure: MIC

Neighbouring rows are from separate reports. Two numbers with a dash give a range or band. Blank or dashed fields: not listed here.

{"SMILES": "Clc1ccccc1N1CCN(CCCc2nc3ccc(Br)cc3[nH]2)CC1", "strain or isolate": "ATCC 10231", "result": "1250 µg/mL"}
{"SMILES": "CCC[C@H](N)C(=O)NC(CNC(=O)/C=C/C(=O)OC)C(=O)O", "result": "0.2 µg/mL"}
{"SMILES": "COc1ccc(Br)cc1/C=N/NC(=O)Cc1cccc(Br)c1", "read by": "MTT", "result": ">150 µM"}
{"SMILES": "C[C@@H](c1ncncc1F)[C@](O)(Cn1cncn1)c1ccc(F)cc1F", "strain or isolate": "373", "read by": "broth dilution", "result": "0.12 µg/mL"}
{"SMILES": "COc1cc(CCc2ccc(O)cc2)cc(OC)c1OC", "result": "50 µg/mL"}
{"SMILES": "CCc1ccc(NC(=S)c2cc(Cl)ccc2O)cc1", "strain or isolate": "ATCC 44859", "result": "31.3 µM"}
{"SMILES": "O=C(OC(Cn1ccnc1)c1ccc(F)cc1)c1cccc(C(F)(F)F)c1", "read by": "broth dilution", "result": "46.3 µg/mL"}
{"SMILES": "COc1ccc(OC/C(N)=N\\NC(=O)c2ccncc2)cc1", "strain or isolate": "ATCC E10231", "result": ">100 µg/mL"}
{"SMILES": "C/C=C/C1=CC2=C(CO1)C(=O)[C@](C)(OC(=O)c1c(C)cc(O)c(O)c1OC)[C@H](O)C2", "read by": "broth dilution", "result": ">256 µg/mL"}
{"SMILES": "C[C@@H]1CCC2(OC1)OC1CC3C4C[C@H](OC5O[C@@H](CO)[C@H](O)[C@@H](O)[C@@H]5O)[C@H]5C[C@@H](OC6O[C@H](CO)[C@@H](O)[C@H](O)[C@H]6O)CC[C@]5(C)C4CC[C@]3(C)C1[C@@H]2C", "strain or isolate": "ATCC 90028", "result": "20 µg/mL"}
{"SMILES": "CC1C(=O)CC(c2ccccc2)N(OCCc2nc3ncccc3[nH]2)C1c1ccccc1", "strain or isolate": "NCIM-C27", "result": "100 µg/mL"}
{"SMILES": "Cc1cccc(OC/C(N)=N\\NC(=O)c2ccncc2)c1", "strain or isolate": "ATCC E10231", "result": ">100 µg/mL"}
{"SMILES": "O=C(c1ccc2c(c1)oc(=O)n2CC1=NCCS1)c1ccccc1F", "result": "75 µg/mL"}
{"SMILES": "Cc1c(O)cccc1C(=O)N[C@@H](CSc1ccccc1)[C@H](O)CN1C[C@H]2CCCC[C@H]2C[C@H]1C(=O)NC(C)(C)C", "strain or isolate": "I53", "result": ">64 µg/mL"}
{"SMILES": "CCC(N)C(=O)NC(CNC(=O)/C=C/C(=O)OC)C(=O)O", "result": "0.78 µg/mL"}
{"SMILES": "Cc1ccc2c(c1)nc1c(CN)c(-c3c(-c4ccc(Cl)cc4)[nH]c4ccccc34)c(CN)c(N)n12", "strain or isolate": "MTCC 227", "read by": "broth dilution", "result": "250 µg/mL"}
{"SMILES": "CO[C@H]1[C@@H](O)[C@H](O)[C@H](OC[C@@]23C[C@@H]4[C@H](C)CC[C@H]4[C@@]4(C=O)C[C@@H]2C=C(C(C)C)[C@@]34C(=O)O)O[C@@H]1C", "strain or isolate": "MY1055", "result": "6.25 µg/mL"}
{"SMILES": "CCOc1nc([N-]OC)c2c(n1)[N+](C)=C=[N+]2C/C=C(\\C)CC/C=C(\\C)CC/C=C(\\C)CCC=C(C)C", "strain or isolate": "ATCC 90028", "read by": "agar", "result": "4 µg/mL"}
{"SMILES": "C/C=C/C1=CC2=C(CO1)C(=O)[C@](C)(O)[C@H](OC(=O)c1c(C)cc(O)cc1O)C2", "read by": "broth dilution", "result": ">256 µg/mL"}
{"SMILES": "O=C1CC(c2ccccc2)N(OCCc2nc3ncccc3[nH]2)C(c2ccccc2)C1", "strain or isolate": "51 (NCIM-C27)", "result": "100 µg/mL"}
{"SMILES": "COC(=O)/C=C/C(=O)NCC(NC(=O)[C@@H](C)N)C(=O)O", "result": ">200 µg/mL"}
{"SMILES": "Cc1ccc(-c2[nH]c3ccccc3c2-c2c(CN)c(N)n3c(nc4cc(C)ccc43)c2CN)cc1", "strain or isolate": "MTCC 227", "read by": "broth dilution", "result": ">1000 µg/mL"}
{"SMILES": "OC(Cn1cncn1)(Cn1cncn1)c1ccc(F)cc1F", "strain or isolate": "ATCC 10231", "result": "313 µg/mL"}
{"SMILES": "CN[C@@H]1[C@H](O[C@@H]2OC[C@@H](O)[C@H](O)[C@H]2O)[C@@H](O)[C@H](O[C@H]2c3cc(C)c(C(=O)N[C@H](C)C(=O)O)c(O)c3-c3c(cc4c(c3O)C(=O)c3cc(OC)cc(O)c3C4=O)[C@@H]2O)O[C@@H]1C", "strain or isolate": "IAM4888", "result": "6.3 µg/mL"}
{"SMILES": "CC(C)c1ccc(NC(=S)c2cc(Cl)ccc2O)cc1", "strain or isolate": "ATCC 44859", "result": ">125 µM"}
{"SMILES": "COc1ccc(Br)cc1/C=N/NC(=O)Cc1ccc([N+](=O)[O-])cc1", "read by": "MTT", "result": ">150 µM"}
{"SMILES": "COc1cc2c(cc1O)CCc1cc(O)cc(OC)c1-2", "result": "50 µg/mL"}
{"SMILES": "CC(C)=C(CCc1ccc2c(c1)C(=O)C=CC2=O)C(C)CCCO", "result": "3 µg/mL"}
{"SMILES": "Nc1[nH]c(=O)ncc1F", "strain or isolate": "2726", "result": "0.5 µg/mL"}
{"SMILES": "COc1ccc(C2CC(=O)CC(c3ccc(OC)cc3)N2OCCc2nc3ncccc3[nH]2)cc1", "strain or isolate": "6 (NCIM-C27)", "result": "25 µg/mL"}
{"SMILES": "NCc1c(-c2c(-c3ccc(Br)cc3)[nH]c3ccccc23)c(CN)c2nc3ccccc3n2c1N", "strain or isolate": "MTCC 227", "read by": "broth dilution", "result": "500 µg/mL"}
{"SMILES": "Oc1ccc(Cl)cc1C(=S)Nc1ccc(F)cc1", "strain or isolate": "ATCC 44859", "result": "62.5 µM"}
{"SMILES": "COC(=O)/C=C/C(=O)NCC(NC(=O)[C@H](C)N)C(=O)O", "result": "3.12 µg/mL"}
{"SMILES": "Nc1ncccc1-c1cc(Cc2ccc(COc3ccccn3)cc2)no1", "strain or isolate": "8647", "read by": "broth dilution", "result": "0.03 µg/mL"}
{"SMILES": "C=CC(C)(/C=C\\c1ccc(O)cc1)c1ccc(O)cc1", "strain or isolate": "Y1-3", "result": "50 µg/mL"}
{"SMILES": "O=C(N/N=C/c1cc([N+](=O)[O-])ccc1O)c1ccc(I)cc1", "strain or isolate": "ATCC 58455", "result": ">25 µg/mL"}
{"SMILES": "COc1ccc(C(=O)c2ccc3c(c2)oc(=O)n3CC2=NCCS2)cc1", "result": "100 µg/mL"}
{"SMILES": "C[C@H]1[C@H](O)[C@@H](C)/C=C/C=C/C=C/C=C/C=C/C=C/C=C/[C@H](O[C@@H]2O[C@H](C)[C@@H](O)[C@H](N)[C@@H]2O)C[C@@H]2O[C@](O)(C[C@@H](O)C[C@@H](O)CC[C@H](O)[C@@H](O)C[C@@H](O)CC(=O)O[C@H]1C)C[C@H](O)[C@H]2C(=O)O", "strain or isolate": "B311 (drug-resistant)", "result": "0.5 µg/mL"}
{"SMILES": "O=C(c1ccc2c(c1)oc(=O)n2CC1=NCCS1)c1ccccc1Cl", "result": "25 µg/mL"}
{"SMILES": "Clc1ccc(C(Cn2ccnc2)OCc2csc3c(Cl)cccc23)c(Cl)c1", "strain or isolate": "16 strains", "result": "2 µg/mL"}
{"SMILES": "O=C(N/N=C(\\COc1ccc(Cl)cc1)N=Cc1cccnc1)c1ccncc1", "strain or isolate": "ATCC E10231", "result": ">100 µg/mL"}
{"SMILES": "COC(=O)/C=C/C(=O)NCC(N)C(=O)N[C@H](C(=O)O)C(C)C", "result": "3.12 µg/mL"}
{"SMILES": "O=C(N/N=C(\\COc1ccc([N+](=O)[O-])cc1)N=Cc1cccnc1)c1ccncc1", "strain or isolate": "ATCC E10231", "result": ">100 µg/mL"}
{"SMILES": "C[C@H]1[C@H](O)[C@@H](C)/C=C/C=C/C=C/C=C/C=C/C=C/C=C/[C@H](O[C@@H]2O[C@H](C)[C@@H](O)[C@H](N)[C@@H]2O)C[C@@H]2O[C@](O)(C[C@@H](O)C[C@@H](O)CC[C@H](O)[C@@H](O)C[C@@H](O)CC(=O)O[C@H]1C)C[C@H](O)[C@H]2C(=O)O", "strain or isolate": "83-2-14", "result": "0.4 µg/mL"}
{"SMILES": "CO[N-]c1nc(N(C)C)nc2c1[N+](C/C=C(\\C)CC/C=C(\\C)CC/C=C(\\C)CCC=C(C)C)=C=[N+]2C", "strain or isolate": "ATCC 90028", "read by": "agar", "result": "2 µg/mL"}
{"SMILES": "Fc1ccc(CCCCn2c3c(c4cc(F)ccc42)CNCC3)cc1", "strain or isolate": "ATCC 10231", "result": "3.12–6.25 µg/mL"}
{"SMILES": "COc1ccc(OC/C(N=Cc2ccncc2)=N\\NC(=O)c2ccncc2)cc1", "strain or isolate": "ATCC E10231", "result": ">100 µg/mL"}
{"SMILES": "CCCC1=CC2=C(CO1)C(=O)[C@](C)(OC(=O)c1c(C)cc(O)cc1OC)[C@H](O)C2", "read by": "broth dilution", "result": ">256 µg/mL"}
{"SMILES": "COC(=O)/C=C/C(=O)NCC(NC(=O)[C@@H](N)Cc1ccc(O)cc1)C(=O)O", "result": "12.5 µg/mL"}
{"SMILES": "OC(Cn1cncn1)(Cn1cncn1)c1ccc(F)cc1F", "result": "12.5 µg/mL"}
{"SMILES": "CCCC(NC(=O)C(N)CNC(=O)/C=C/C(=O)OC)C(=O)O", "result": "3.12 µg/mL"}
{"SMILES": "Clc1ccc(COC(Cn2ccnc2)c2ccc(Cl)cc2Cl)cc1", "result": "2.24 µg/mL"}
{"SMILES": "CC(=O)N1CCN(c2ccc(OC[C@H]3CO[C@](Cn4ccnc4)(c4ccc(Cl)cc4Cl)O3)cc2)CC1", "strain or isolate": "ATCC 90028", "read by": "broth dilution", "result": "125 µg/mL"}
{"SMILES": "CONc1nc([O-])nc2c1[N+](C/C=C(\\C)CC/C=C(\\C)CC/C=C(\\C)CCC=C(C)C)=C=[N+]2C", "strain or isolate": "ATCC 90028", "read by": "agar", "result": ">16 µg/mL"}
{"SMILES": "COc1cc(O)cc(OC)c1C(=O)/C=C/c1ccccc1", "result": "50 µg/mL"}
{"SMILES": "Cc1cccc(OC/C(N=Cc2ccncc2)=N\\NC(=O)c2ccncc2)c1", "strain or isolate": "ATCC E10231", "result": ">100 µg/mL"}
{"SMILES": "CCCCCCCCOc1ccc(-c2ccc(C(=O)NC3CC(NCCN)CNC(=O)[C@@H]4[C@@H](O)[C@@H](C)CN4C(=O)[C@@H](CO)NC(=O)[C@H]([C@H](O)Cc4ccccc4)NC(=O)[C@@H]4C[C@@H](O)CN4C(=O)[C@H]([C@@H](C)O)NC3=O)cc2)cc1", "strain or isolate": "K1", "result": "0.5 µg/mL"}

6 of the rows above, restated:

SMILES,strain or isolate,read by,result
CCc1ccc(NC(=S)c2cc(Cl)ccc2O)cc1,ATCC 44859,-,31.3 µM
Cc1cccc(OC/C(N)=N\NC(=O)c2ccncc2)c1,ATCC E10231,-,>100 µg/mL
O=C(N/N=C/c1cc([N+](=O)[O-])ccc1O)c1ccc(I)cc1,ATCC 58455,-,>25 µg/mL
COc1ccc(OC/C(N=Cc2ccncc2)=N\NC(=O)c2ccncc2)cc1,ATCC E10231,-,>100 µg/mL
Cc1ccc2c(c1)nc1c(CN)c(-c3c(-c4ccc(Cl)cc4)[nH]c4ccccc34)c(CN)c(N)n12,MTCC 227,broth dilution,250 µg/mL
CCC(N)C(=O)NC(CNC(=O)/C=C/C(=O)OC)C(=O)O,-,-,0.78 µg/mL